We go through 2 molecules from PubChem BioAssay AID588824 (The Scripps Research Institute Molecular Screening Center, 2011).

Each structure is given as a SMILES string. The list shows a part of the results, in another mix than the full data. Activity calls are given as the source filed them. Rule as the data show it: active = inhibition above about 25%; inactive = the rest.

A short description of this assay: repression of VP16-driven luciferase reporter – cell-based, luminescence, high throughput, counter-screen for SRC1 inhibitor project (AID 588824). As to conditions: cell-based VP16 transactivation luciferase luminescence; at 3.6 µM; stronger effect = higher value.
`O=c1[nH]c2ccccc2n1C1CCN(C(c2ccccc2)c2nnnn2C2CCCCC2)CC1` (configuration not stated): the inhibition is inactive: -6.22%. With `COc1cccc(C(c2nnnn2C2CCCCC2)N2CCC(n3c(=O)[nH]c4ccccc43)CC2)c1OC` (configuration not stated) the figure was inactive: -0.5%.
